{"source": "paper PMC4981971", "about": "“Bacillus anthracis S-layer protein BslA binds to extracellular matrix by interacting with laminin” (2016)", "target": "laminin (mouse EHS laminin) (mouse)", "assay": "SPR", "data": [{"substance": "BslA(260–652), recombinant truncated Bacillus anthracis S-layer protein A (domain or fragment)", "values": [{"measurement": "Kd", "result": 3.17, "unit": "nM"}, {"measurement": "koff", "result": 0.000555, "unit": "s⁻¹"}, {"measurement": "kon", "result": 175000, "unit": "M⁻¹ s⁻¹"}]}]}
